Pooled drug test results. Numbers come from NIAID ChemDB, via PubChem.

Shared fields: cytotoxicity tests; cells: MT-4; endpoint: CC50

Rows are shuffled and stem from different studies.

| structure | read by | result |
|---|---|---|
| Cc1cn([C@@H]2S[C@@H](CO)C[C@@H]2N=[N+]=[N-])c(=O)[nH]c1=O |  | >100 µM |
| COc1ccc(CCN2C(=O)/C(=C\c3ccccc3-c3ccco3)N(CCc3ccc(OC)c(OC)c3)C2=S)cc1OC | MTT | 17.35 µg/mL |
| CC(C)(C)OC(=O)NCCCCCC(=O)N(Cc1ccccc1)CC(O)CN(Cc1ccccc1)C(=O)CCCCCNC(=O)OC(C)(C)C |  | 10 µM |
| O=C1Nc2ccccc2/C1=N/n1c(-c2ccncc2)n[nH]c1=S |  | 11.3 µM |
| N#Cc1cc(Cl)cc(Oc2c(C(F)(F)F)ccn(CC(=O)Nc3cnccn3)c2=O)c1 | MTT | ≥183 µM |
| Cc1cc(C)cc(S(=O)(=O)c2c(C(=O)N[C@H]3CCNC3)[nH]c3ccc(Cl)cc23)c1 | MTT | 10.02 µM |
| O=C1C=C[C@H](n2ccc(=O)n(C(=O)c3ccccc3)c2=O)CC1 | MTT | 10.1 µg/mL |
| CNc1nc(Nc2ccc(C#N)cc2F)nc(Oc2ccc3ccccc3c2Br)n1 |  | 98.84 µM |
| CN(C)CN1C(=O)/C(=N\n2c(-c3ccncc3)n[nH]c2=S)c2cc(Br)ccc21 |  | 11.3 µM |
| Cc1cn([C@H]2C[C@H](N=[N+]=[N-])[C@@H](CO)O2)c(=O)[nH]c1=O | MTT | >25 µM |
| CC(C)(C)OC(=O)N(CCCCC(=O)N(CC(=O)CN(Cc1ccccc1)C(=O)CCCCN(CCCN(Cc1ccccc1)C(=O)OC(C)(C)C)C(=O)OC(C)(C)C)Cc1ccccc1)CCCN(Cc1ccccc1)C(=O)OC(C)(C)C |  | 50 µM |
| Cc1cc(C)cc(S(=O)(=O)c2c(C(=O)N[C@@H]3CCN(S(C)(=O)=O)C3)[nH]c3ccc(Cl)cc23)c1 | MTT | 23.95 µM |
| O=c1ccn(N2C[C@H](CO)[C@H]2CO)c(=O)[nH]1 |  | >100 µg/mL |
| C=C(C)[C@@H]1CC[C@]2(C(=O)O)CC[C@]3(C)[C@H](CC[C@@H]4[C@@]5(C)CC[C@H](OC(=O)CCC(=O)OC[C@H]6OC(n7cc(C)c(=O)[nH]c7=O)C[C@@H]6N=[N+]=[N-])C(C)(C)[C@@H]5CC[C@]43C)[C@@H]12 |  | >50 µM |
| Cc1cc(C)cc(S(=O)(=O)c2c(C(=O)NS(=O)(=O)C3CC3)[nH]c3ccc(Cl)cc23)c1 | MTT | 146 µM |
| O=C1Nc2ccc(Cl)cc2/C1=N/n1c(-c2ccncc2)n[nH]c1=S |  | 10.8 µM |
| COc1ccc(CCN2C(=O)/C(=C\c3cccc(Br)c3)N(CCc3ccc(OC)c(OC)c3)C2=S)cc1OC | MTT | >109.2 µg/mL |
| Cc1cn([C@H]2S[C@@H](CO)C[C@@H]2N=[N+]=[N-])c(=O)[nH]c1=O |  | >100 µM |
| Cc1cn([C@@H]2O[C@@H]3CN[C@@]4(OCC(C)(C)C)CS(=O)(=O)O[C@@]34[C@H]2O)c(=O)[nH]c1=O |  | 237 µM |
| CC(C)(C)OC(=O)N(CCC(=O)N(CC(=O)CN(Cc1ccccc1)C(=O)CCN(Cc1ccccc1)C(=O)OC(C)(C)C)Cc1ccccc1)Cc1ccccc1 |  | >1 µM |
| N#Cc1cc(Cl)cc(Oc2c(C(F)(F)F)ccn(CC(=O)Nc3ccc(Br)cc3)c2=O)c1 | MTT | 87.9 µM |
| Nc1ncnc2c1ncn2[C@@H]1C=CC(O)CC1 | MTT | >25 µg/mL |
| O=C1/C(=N\n2c(-c3ccncc3)n[nH]c2=S)c2ccccc2N1CN1CCCCC1 |  | 10.1 µM |
| CC(C)C[C@H](NC(=O)[C@]12CCC(C)(C)C=C1[C@H]1CC[C@@H]3[C@@]4(C)CC[C@H](OC(=O)CC(C)(C)C(=O)O)C(C)(C)[C@@H]4CC[C@@]3(C)[C@]1(C)CC2)C(=O)O |  | 21 µM |
| Cc1cn([C@@H]2OC3CN[C@@]4(OCC(C)C)CS(=O)(=O)O[C@@]34[C@H]2O[Si](C)(C)C(C)(C)C)c(=O)[nH]c1=O |  | 16 µM |
| CS(=O)(=O)c1ccc(NC(=O)Cn2ccc(C(F)(F)F)c(Oc3cc(Cl)cc(C#N)c3)c2=O)cc1 | MTT | 112 µM |
| CCN(CC)c1c(N=Nc2ccc(Cl)cc2)c(N)nc(=O)n1C | MTT | 100 µM |
| COc1ccc(CCN2C(=O)/C(=C\c3cccc(Oc4ccccc4)c3)N(CCc3ccc(OC)c(OC)c3)C2=S)cc1OC | MTT | 24.9 µg/mL |
| C[C@H]1CN2C(=O)c3c(O)c(=O)c(C(=O)NCc4ccc(F)c(Cl)c4F)cn3[C@@H]3CCC[C@@]32O1 | luminescence | 3.9 µM |
| Cc1cn([C@@H]2S[C@H](CO)C[C@@H]2N=[N+]=[N-])c(=O)[nH]c1=O |  | >100 µM |
| O=C(O)CN(CCN(CC(=O)O)Cc1cnc2c(O)cccc2c1)CC(=O)O | MTT | >50 µM |
| CC(C)[C@@H]1CC[C@@H](C)C/C1=N\NC(N)=S |  | 12.7 µg/mL |
| CCCCO[C@]12CS(=O)(=O)O[C@@]13C(CN2)O[C@@H](n1cc(C)c(=O)[nH]c1=O)[C@@H]3O[Si](C)(C)C(C)(C)C |  | 18 µM |
| COc1cc2nc(S(=O)CC(=O)Nc3ccc(C#N)cc3)nc(Nc3c(C)cc(/C=C/C#N)cc3C)c2cc1OC | MTT | >221 µM |
| COc1ccc(NC(=S)N/N=C2\CC(C)CCC2C(C)C)cc1 |  | 84.6 µg/mL |
| [N-]=[N+]=N[C@H]1C[C@@H](CO)S[C@@H]1n1cnc2c(N)ncnc21 |  | >100 µM |
| O=C(Nc1cc(C(=O)Nc2ccc(S(=O)(=O)O)c3cc(S(=O)(=O)O)cc(S(=O)(=O)O)c23)ccc1F)Nc1cc(C(=O)Nc2ccc(S(=O)(=O)O)c3cc(S(=O)(=O)O)cc(S(=O)(=O)O)c23)ccc1F |  | >500 µg/mL |
| O=C(NCc1ccc(F)c(Cl)c1F)c1cn2c(c(O)c1=O)C(=O)N1CCC[C@]13COCC[C@H]23 | luminescence | 9.06 µM |
| [N-]=[N+]=N[C@@H]1C[C@@H](CO)S[C@H]1n1cnc2c(Cl)ncnc21 |  | >100 µM |
| COc1cc2nc(S(=O)CC(=O)Nc3ccc(C(F)(F)F)cc3)nc(Nc3c(Cl)cc(/C=C/C#N)cc3Cl)c2cc1OC | MTT | 22 µM |
| CCOC(=O)Oc1nc(=O)n([C@H]2C[C@H](N=[N+]=[N-])[C@@H](COC(=O)[C@]34CCC(C)(C)C[C@H]3C3=CC[C@@H]5[C@@]6(C)CC[C@H](O)C(C)(C)[C@@H]6CC[C@@]5(C)[C@]3(C)CC4)O2)cc1C |  | 35 µM |
| Cc1cc(C)cc(S(=O)(=O)c2c(C(=O)NC3CCNC3)[nH]c3ccc(Cl)cc23)c1 | MTT | 37.31 µM |
| CC(C)[C@H](NC(=O)c1ccccc1)C(=O)N/N=C/c1c(F)cccc1Cl | MTT | >332 µM |
| [N-]=[N+]=N[C@H]1C[C@H](CO)SC1n1cnc2c(N)ncnc21 |  | >100 µM |
| CCCCCCNc1c(N=Nc2ccc(Cl)cc2)c(N)nc(=O)n1C | MTT | 66.6 µM |
| CCOC(=O)c1cc2ccc(Nc3ccc(COCCc4ccc(F)cc4)cc3)cc2[nH]1 | MTT | >80 µM |
| COc1ccc(CCN2C(=O)/C(=C\c3cc(OC)c(OC)c(OC)c3)N(CCc3ccc(OC)c(OC)c3)C2=S)cc1OC | MTT | 13.45 µg/mL |
| CC(C)(C)OC(=O)N(CCCCC(=O)N(CC(=O)CN(Cc1ccccc1)C(=O)CCCCN(Cc1ccccc1)C(=O)OC(C)(C)C)Cc1ccccc1)Cc1ccccc1 |  | >50 µM |
| Cn1c(-c2ccc(F)c(F)c2)cc(N)nc1=O | MTT | 16.01 µM |
| C=CCNc1nc(Nc2ccc(C#N)cc2F)nc(Oc2ccc(C)cc2)n1 |  | 186 µM |
| O=C1/C(=N\n2c(-c3ccncc3)n[nH]c2=S)c2cc(Br)ccc2N1CN1CCCCC1 |  | 11.5 µM |
| Cc1ccnc2c1NC(=O)c1cccnc1N2C1CC1 |  | >40 µg/mL |
| Cc1cc(C)c(C(=O)Nc2ccc(S(=O)(=O)O)c3cc(S(=O)(=O)O)cc(S(=O)(=O)O)c23)c(C)c1NC(=O)c1cccc(NC(=O)Nc2cccc(C(=O)Nc3c(C)cc(C)c(C(=O)Nc4ccc(S(=O)(=O)O)c5cc(S(=O)(=O)O)cc(S(=O)(=O)O)c45)c3C)c2)c1 |  | >500 µg/mL |
| COc1cc2nc(S(=O)CC(=O)Nc3ccc(Cl)cc3)nc(Nc3c(Cl)cc(/C=C/C#N)cc3Cl)c2cc1OC | MTT | 14.4 µM |
| CC(C)C[C@@H](CO)NC(=O)[C@]12CCC(C)(C)C=C1[C@H]1CC[C@@H]3[C@@]4(C)CC[C@H](OC(=O)CC(C)(C)C(=O)O)C(C)(C)[C@@H]4CC[C@@]3(C)[C@]1(C)CC2 |  | 23.5 µM |
| [N-]=[N+]=N[C@H]1C[C@@H](CO)S[C@H]1n1cnc2c(N)ncnc21 |  | >100 µM |
| CC(C)OC(=O)c1[nH]c2ccc([N+](=O)[O-])cc2c1COCc1ccc(Cl)cc1 | MTT | >80 µM |
| N#Cc1cc(Cl)cc(Oc2c(C(F)(F)F)ccn(CC(=O)Nc3ccn[nH]3)c2=O)c1 | MTT | ≥41.9 µM |
| O=C(c1ccccc1)n1c(=O)ccn([C@@H]2C=CC3(CC2)O[C@H](c2ccccc2)[C@@H](c2ccccc2)O3)c1=O | MTT | >25 µg/mL |
| COc1ccc(CCN2C(=O)/C(=C\c3ccc(F)cc3)N(CCc3ccc(OC)c(OC)c3)C2=S)cc1OC | MTT | 18.5 µg/mL |
| C=CNc1nc(Nc2ccc(C#N)cc2F)nc(Oc2ccc3ccccc3c2Br)n1 |  | >255.1 µM |
| COc1cc2nc(S(=O)CC(=O)Nc3ccccc3C(F)(F)F)nc(Nc3c(Cl)cc(/C=C/C#N)cc3Cl)c2cc1OC | MTT | >192 µM |
| CNc1ncnc2c1ncn2[C@H]1S[C@H](CO)C[C@@H]1N=[N+]=[N-] |  | >100 µM |
| CC(C)[C@H](NC(=O)c1ccccc1)C(=O)N/N=C/c1ccccc1F | MTT | >366 µM |
| Cc1cn([C@@H]2O[C@@H]3CN[C@@]4(C#N)CS(=O)(=O)O[C@@]34[C@H]2O[Si](C)(C)C(C)(C)C)c(=O)[nH]c1=O |  | 101 µM |
| O=C1Nc2ccc(Br)cc2/C1=N/n1c(-c2ccncc2)n[nH]c1=S |  | 11.2 µM |
| Cc1cc(C)cc(S(=O)(=O)c2c(C(=O)NC3CNC3)[nH]c3ccc(Cl)cc23)c1 | MTT | 37.31 µM |
| Nc1nc2c(ncn2[C@H]2CC[C@@H](CO)O2)c(=O)[nH]1 |  | 486 µM |
| Cc1ccc(C(=O)Nc2ccc(S(=O)(=O)O)c3cc(S(=O)(=O)O)cc(S(=O)(=O)O)c23)cc1NC(=O)c1ccc(NC(=O)Nc2ccc(C(=O)Nc3cc(C(=O)Nc4ccc(S(=O)(=O)O)c5cc(S(=O)(=O)O)cc(S(=O)(=O)O)c45)ccc3C)cc2)cc1 |  | >50 µg/mL |
| C[C@@H]1CO[C@@]23CCCC[C@@H]2n2cc(C(=O)NCc4ccc(F)cc4F)c(=O)c(O)c2C(=O)N13 | luminescence | 7.27 µM |
| O=S(=O)(O)c1cc(Nc2ccnc3cc(Cl)ccc23)c2c(S(=O)(=O)O)cc(S(=O)(=O)O)cc2c1 |  | >500 µg/mL |
| CC(C)[C@@H](NC(=O)c1ccccc1)C(=O)N/N=C/c1c(F)cccc1Cl | MTT | >332 µM |

Repeating the final 10 entries:

structure	read by	result
CNc1ncnc2c1ncn2[C@H]1S[C@H](CO)C[C@@H]1N=[N+]=[N-]		>100 µM
CC(C)[C@H](NC(=O)c1ccccc1)C(=O)N/N=C/c1ccccc1F	MTT	>366 µM
Cc1cn([C@@H]2O[C@@H]3CN[C@@]4(C#N)CS(=O)(=O)O[C@@]34[C@H]2O[Si](C)(C)C(C)(C)C)c(=O)[nH]c1=O		101 µM
O=C1Nc2ccc(Br)cc2/C1=N/n1c(-c2ccncc2)n[nH]c1=S		11.2 µM
Cc1cc(C)cc(S(=O)(=O)c2c(C(=O)NC3CNC3)[nH]c3ccc(Cl)cc23)c1	MTT	37.31 µM
Nc1nc2c(ncn2[C@H]2CC[C@@H](CO)O2)c(=O)[nH]1		486 µM
Cc1ccc(C(=O)Nc2ccc(S(=O)(=O)O)c3cc(S(=O)(=O)O)cc(S(=O)(=O)O)c23)cc1NC(=O)c1ccc(NC(=O)Nc2ccc(C(=O)Nc3cc(C(=O)Nc4ccc(S(=O)(=O)O)c5cc(S(=O)(=O)O)cc(S(=O)(=O)O)c45)ccc3C)cc2)cc1		>50 µg/mL
C[C@@H]1CO[C@@]23CCCC[C@@H]2n2cc(C(=O)NCc4ccc(F)cc4F)c(=O)c(O)c2C(=O)N13	luminescence	7.27 µM
O=S(=O)(O)c1cc(Nc2ccnc3cc(Cl)ccc23)c2c(S(=O)(=O)O)cc(S(=O)(=O)O)cc2c1		>500 µg/mL
CC(C)[C@@H](NC(=O)c1ccccc1)C(=O)N/N=C/c1c(F)cccc1Cl	MTT	>332 µM

An empty or dashed field is not shown. CCn is the concentration with n% toxicity to the cells.